Data on 1 substance can be found in US12122799B2, “Antibiotics for veterinary staphylococcal infections” (THE GEORGE WASHINGTON UNIVERSITY, A CONGRESSIONALLY …, priority 2018, dated 2024).

Amino acid sequences for entries named in this document (tags omitted). A change or cut given only in a name is not applied to a line headed by its entry.
UniProt O96693: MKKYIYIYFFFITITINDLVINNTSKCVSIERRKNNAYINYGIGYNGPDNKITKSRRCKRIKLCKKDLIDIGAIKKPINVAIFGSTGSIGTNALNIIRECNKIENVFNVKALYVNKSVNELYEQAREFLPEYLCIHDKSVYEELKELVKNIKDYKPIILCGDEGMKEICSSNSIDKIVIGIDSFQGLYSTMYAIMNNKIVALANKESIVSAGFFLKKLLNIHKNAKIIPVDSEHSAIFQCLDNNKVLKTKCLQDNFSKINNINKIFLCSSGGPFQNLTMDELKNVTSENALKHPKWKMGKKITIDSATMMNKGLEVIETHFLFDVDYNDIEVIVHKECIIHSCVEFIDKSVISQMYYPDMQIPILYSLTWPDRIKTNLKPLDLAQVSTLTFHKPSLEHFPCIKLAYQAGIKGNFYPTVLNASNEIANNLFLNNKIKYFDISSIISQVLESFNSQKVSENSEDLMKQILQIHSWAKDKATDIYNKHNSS

One test concerns S. aureus. Nature of the test: Growth inhibition of Staphylococcus species assay. Particulars: read-out: Bacterial IC50 (Mean ± SD) S.a., LB media, 20 h, OD600. The format is cell-based.
Test [1] has as its system S. chromogenes. Nature of the test: Growth inhibition of Staphylococcus species assay. It is filed as cell-based. Conditions: read-out: Bacterial IC50 (Mean ± SD) S.c., LB media, 20 h, OD600.
In test [2] the test system is S. pseudintermedius. The experiment in a line: Growth inhibition of Staphylococcus species assay. Conditions: read-out: Bacterial IC50 (Mean ± SD) S.p., LB media, 20 h, OD600. The format is cell-based.
A further test has as its system S. schleiferi. The experiment in a line: Growth inhibition of Staphylococcus species assay. Conditions: read-out: Bacterial IC50 (Mean ± SD) S.s., LB media, 20 h, OD600. It is filed as cell-based.
In a further test the test system is S. schleferi. Nature of the test: Minimum bactericidal (MBC) assay. The format is cell-based, S. schleiferi. Conditions: FIG. 1; at IC50 and 10×IC50, 24 h.
The subject of test [3] is S. chromogenes. The experiment in a line: Minimum bactericidal (MBC) assay. It is filed as cell-based. Particulars: FIG. 1; at IC50 and 10×IC50, 24 h.
For test [4], the system named is S. pseudintermedius. Nature of the test: Minimum bactericidal (MBC) assay. It is filed as cell-based. Particulars: FIG. 1; at IC50 and 10×IC50, 24 h.
A further test addresses P. falciparum DXR (Plasmodium falciparum (isolate HB3), UniProt O96693). Particulars: read-out: P. falciparum DXR IC50; background; cited from earlier work.
The test system of a further test is P. falciparum. Conditions: read-out: inhibition of P. falciparum growth IC50; background; cited from earlier work.

Bounds are passed on as bounds.

As to FR-900098, the half-maximal inhibitory concentration (IC50) with S. aureus is more than 100 µM; with S. chromogenes [1], 17.3 µM; in the test on S. pseudintermedius [2], 34.1 µM; in the test on S. schleiferi it was 41.1 µM; at P. falciparum DXR it was 0.024 µM; with P. falciparum, 0.09 to 0.35 µM. Besides, in the test on S. schleferi, the “bacteriostatic or bactericidal in S. schleferi” value is on record as “bacteriostatic”. Besides, in the test with S. chromogenes [3], the “bacteriostatic or bactericidal in S. chromogenes” value is recorded as “bacteriostatic”. Moreover, the “bacteriostatic or bactericidal in S. pseudintermedius” value in the test on S. pseudintermedius [4] is “bacteriostatic”.

A word on the IC50: it is the concentration needed to halve the response being measured.
